# For part of its entries the source gives two or more results. Only these are listed. There may be further records. Results that share an entry differ, and nothing given here explains why; dose, time, organism, isomer or construct need not be as stated for each record.
# Target: SARS-CoV-2 RdRp (Severe acute respiratory syndrome coronavirus 2, UniProt P0DTD1)
# Assay: Cell-based SARS-CoV-2 RdRp activity assay (NLuc/FLuc reporter, nsp12 only)
# Conditions: max. dose 4.4 μM; HEK293T, 15 h; tested form: HCl
structure (smiles),measurement,value
OC1C=C2CCN3Cc4cc5c(cc4C(C1O)C23)OCO5 (stereo not shown),Inhibition % of RdRp Activity at Max. Dose,completely inhibited and 100%

# Source: paper PMC8392292 (Biomedicines, 2021)
